From patent publication US20140287433

What was measured:
[1] = tested on: SNAPtide (o-Abz/Dnp) (List Biological Laboratories Inc.)
[2] = tested on: SNAPtide (DABCYL/5-IAF) (List Biological Laboratories Inc.)
[3] = tested on: SNAPtide (FITC/DABCYL) (List Biological Laboratories Inc.)

BoNT/A
lowest toxin concentration detected by substrate cleavage (fluorescence) [1]: allowed detection of at least either 1 nM BoNT/A; also recorded: SNAPtideFITC and SNAPtideo-Abz even allowed detection of 0.5 nM BoNT/A | lowest toxin concentration detected by substrate cleavage (fluorescence) [2]: allowed detection of at least either 1 nM BoNT/A | lowest toxin concentration detected by substrate cleavage (fluorescence) [3]: allowed detection of at least either 1 nM BoNT/A; also recorded: SNAPtideFITC and SNAPtideo-Abz even allowed detection of 0.5 nM BoNT/A

“Also recorded” adds a separate entry of the source.
